Results of unrelated studies side by side (data: NIAID ChemDB).

Shared fields: host cell toxicity; cell line: MT-2; endpoint: CC50

CCn: concentration that lowers growth or viability of the cells by n%. Blank or dashed fields: not listed here. Lines come from different laboratories, so protocols vary.

compound,method,value
O=S1(c2cccc(Cl)c2)=NC(=S)Nc2ccc(Cl)cc21,,65.7 µM
Cc1cn([C@H]2C[C@H](N=[N+]=[N-])[C@@H](CO)O2)c(=O)[nH]c1=O,neutral red,349 µM
Nc1ccn([C@H]2CC[C@@H](CO)O2)c(=O)n1,,>32 µg/mL
O=S1(c2ccccc2)=NC(=S)Nc2ccccc21,,>73 µM
CN1CCC(=C2c3ccccc3C=Cc3ccccc32)CC1,ATP,>100 µM
Cc1c(O)cccc1C(=O)N[C@@H](CSc1ccccc1)[C@H](O)CN1C[C@H]2CCCC[C@H]2C[C@H]1C(=O)NC(C)(C)C,MTT,11.1 µM
CCCCCCCCCCCCCCCCOCCCOP(=O)(O)COCCNc1cc(N)nc(N)n1,propidium iodide,20 µM
CCc1c(Sc2ccccc2)n(COCc2ccccc2)c(=O)[nH]c1=O,,19 ± 3 µM
Nc1nc(NC2CC2)c2ncn([C@H]3C=C[C@@H](CO)C3)c2n1,neutral red,135.6 µM
CC(C)CN(C[C@@H](O)[C@H](Cc1ccccc1)NC(=O)O[C@H]1CCOC1)S(=O)(=O)c1ccc(N)cc1,MTT,42.2 µM
Nc1nc(=O)n(CCOCP(=O)(O)O)cc1Br,propidium iodide,100 µM
O=C1N=S(=O)(c2ccccc2)c2ccccc2N1,,>365 µM
O=c1[nH]c(=O)n(CCOCP(=O)(O)O)cc1F,propidium iodide,>100 µM
Nc1ccn([C@H]2CC[C@@H](CO)O2)c(=O)n1,,>10 µM
O=C(/C=C/c1ccc(O)c(O)c1)N[C@@H](COC(=O)/C=C/c1ccc(O)c(O)c1)C(=O)O,neutral red,>39 µM
CCCCCCCCCCCCCCCCOCCCOP(=O)(O)COCCn1cnc2c(N)nc(N)nc21,propidium iodide,0.02 µM
CC(C)(C)NC(=O)[C@@H]1C[C@@H]2CCCC[C@@H]2CN1C[C@H](O)[C@H](Cc1ccccc1)NC(=O)[C@H](CC(N)=O)NC(=O)c1ccc2ccccc2n1,MTT,19.1 µM
COC(=O)[C@H](C)NP(=O)(OCC1C/C1=C\n1cnc2c(N)ncnc21)Oc1ccccc1,,24 µM
O=C(O)C(=Cc1ccc(O)c(O)c1)C(=Cc1ccc(O)c(O)c1)C(=O)O,neutral red,>55 µM
COC(=O)N[C@H](C(=O)N[C@@H](Cc1ccccc1)[C@@H](O)CN(Cc1ccc(-c2ccccn2)cc1)NC(=O)[C@@H](NC(=O)OC)C(C)(C)C)C(C)(C)C,MTT,30.3 µM
CC(C)=CCN1Cc2cccc3[nH]c(=S)n(c23)C[C@@H]1C,,>50 µM
Cc1ccnc2c1NC(=O)c1cccnc1N2C1CC1,neutral red,743 µM
CC(C)(C)NC(=O)[C@@H]1CN(Cc2cccnc2)CCN1C[C@@H](O)C[C@@H](Cc1ccccc1)C(=O)N[C@H]1c2ccccc2C[C@H]1O,,>10 µM
O=C(/C=C/c1ccc(O)c(O)c1)NCC(OC(=O)/C=C/c1ccc(O)c(O)c1)C(=O)O,neutral red,>175 µM
O=S1(c2ccccc2)=NC(=S)Nc2ccc(Cl)cc21,,91 µM
CC(C)OC(=O)OCOP(=O)(CO[C@H](C)Cn1cnc2c(N)ncnc21)OCOC(=O)OC(C)C,,22 µM
CC(C)(C)NC(=O)[C@@H]1C[C@@H]2CCCC[C@@H]2CN1C[C@@H](O)[C@H](Cc1ccccc1)NC(=O)[C@H](CC(N)=O)NC(=O)c1ccc2ccccc2n1,neutral red,23 µM
Cc1cn([C@H]2C[C@H](N=[N+]=[N-])[C@@H](CO)O2)c(=O)[nH]c1=O,,>25 µM
Nc1ccn([C@H]2CC[C@@H](CO)O2)c(=O)n1,,32 µM
Cc1cn(C=C2C[C@H]2CO)c(=O)[nH]c1=O,,>100 µM
COc1cc(-c2cc(=O)c3c(O)cc(O[C@@H]4O[C@H](CO)[C@@H](O)[C@H](O)[C@H]4OS(=O)(=O)O)cc3o2)ccc1O,,>800 µM
CCc1c(Sc2ccccn2)n(COCc2ccccc2)c(=O)[nH]c1=O,,10 ± 1 µM
COC(=O)[C@H](C)NP(=O)(OC[C@H]1C/C1=C\n1cnc2c(=O)[nH]c(N)nc21)Oc1ccccc1,,>100 µM
Nc1nc(=O)n(CCOCP(=O)(O)O)cc1F,propidium iodide,>100 µM
Nc1ncnc2c1ncn2CCOCP(=O)(O)O,,225 µM
COC(=O)N[C@H](C(=O)N[C@@H](Cc1ccccc1)[C@@H](O)CN(Cc1ccc(-c2ccccn2)cc1)NC(=O)[C@@H](NC(=O)OC)C(C)(C)C)C(C)(C)C,MTT,26.7 µM
CC(C)CN(C[C@@H](O)[C@H](Cc1ccccc1)NC(=O)O[C@H]1CCOC1)S(=O)(=O)c1ccc(N)cc1,neutral red,9 µM
CCCCCCCCCCCCCCCCOCCCOP(=O)(O)COCCn1cnc2c(NC3CC3)nc(N)nc21,propidium iodide,0.12 µM
Cc1cn([C@H]2C[C@H](N=[N+]=[N-])[C@@H](CO)O2)c(=O)[nH]c1=O,,475 µM
O=C(/C=C/c1ccc(O)c(O)c1)NCCC[C@H](NC(=O)/C=C/c1ccc(O)c(O)c1)C(=O)O,neutral red,>43 µM
CCCCCCCCCCCCCCCCOCCCOP(=O)(O)COCCn1ccc(N)nc1=O,propidium iodide,39 µM

The first 4 rows once more:

compound | method | value
O=S1(c2cccc(Cl)c2)=NC(=S)Nc2ccc(Cl)cc21 |  | 65.7 µM
Cc1cn([C@H]2C[C@H](N=[N+]=[N-])[C@@H](CO)O2)c(=O)[nH]c1=O | neutral red | 349 µM
Nc1ccn([C@H]2CC[C@@H](CO)O2)c(=O)n1 |  | >32 µg/mL
O=S1(c2ccccc2)=NC(=S)Nc2ccccc21 |  | >73 µM